Data published in patent US20020187514A1 (priority 1999, published 2002).

Tested on: Sodium, Site 1
Assay: Sodium, Site 1; [3H]Saxitoxin
Assay type: binding
Conditions: read-out: Ref Kj; reference compound, QA/QC

## NC1=N[C@H](O)[C@H]2[C@H]3O[C@]4(O)O[C@@H]([C@@H](O)[C@@]2(N1)[C@@H]4O)[C@]3(O)CO
  pKi: 7.47

pKi: −log10 of the molar value.
